In patent publication US20040063624A1, “Method of inhibiting the transition of free HIV virus through the cllular mucosal barrier” (priority 1999, published 2004):

Target: T1, HIV-1 gp120 (Human immunodeficiency virus type 1 group M subtype B, UniProt P04578)
T1 construct: The purified HIV-1 gp120 was adsorbed onto a polystyrrol surface; made in house; host or cells: HIV-1 strain IIIB infected human H9 cells (virus-derived, not recombinant)
Details: immobilized gp120, coincubation overnight at 37° C.; four-parameter logistic spline interpolation; read-out: IC50 of binding of biotinylated mannan to gp120

Substance: mannan
- IC50: 240 nM
